Reference: patent US20190194718
The exact form of at least one protein or probe is not confirmed.

Molecular target: BPHIN 1 (wild-type HIV-1 integrase) (Human immunodeficiency virus 1) (UniProt P04585)
Test: binding assay
Settings: tested paired with adaptor 7; pGL2 fragments 150-500 bp; 5 mM MnCl2, 37 C; purified recombinant protein; protein details: BioProducts MD, LLC

“CAAGCAGAAGACGGCATACGAGATCGTGATGTGACTGGAGTTCAGACGTGTGCTCTTCCGATCTAGCAGT / ACTGCT [IN adaptor 8]”: binds.
